Measurements published in article PMC10696099.

System: CCn1c(=NN=c2sc3cc(S(=O)(=O)O)ccc3n2CC)sc2cc(S(=O)(=O)O)ccc21
Assay: purified protein
Conditions: 100 mM sodium citrate pH 4.5, 37°C

| Substance | Km [µM] | kcat [s⁻¹] | kcat/Km [M⁻¹ s⁻¹] |
| --- | --- | --- | --- |
| CotA-laccase (Bacillus licheniformis DSM 13 = ATCC 14580) | 79 ± 5 | 15.4 | 194000 |
| CotA-laccase (Bacillus licheniformis DSM 13 = ATCC 14580; Q441A) | 52 ± 3 | 20.5 | 392000 |
